Laboratory results taken from article PMC7954794, “Protein context shapes the specificity of SH3 domain-mediated interactions in vivo” (Nature Communications, 2021).

B1: YJL151C (protein, UniProt P14359 1-133, looked up)
Protein SNA3: MDRDHINDHDHRMSYSINKDDLLLMVLAVFIPPVAVWKRKGMFNRDTLLNLLLFLLLFFPAIIHACYVVYETSSERSYDLSRRHATAPAVDRDLEAHPAEESQAQPPAYDEDDEAGADVPLMDNKQQLSSGRT
B2: YMR080C (protein, UniProt P30771 1-971, looked up)
ATP-dependent helicase NAM7: MVGSGSHTPYDISNSPSDVNVQPATQLNSTLVEDDDVDNQLFEEAQVTETGFRSPSASDNSCAYCGIDSAKCVIKCNSCKKWFCNTKNGTSSSHIVNHLVLSHHNVVSLHPDSDLGDTVLECYNCGRKNVFLLGFVSAKSEAVVVLLCRIPCAQTKNANWDTDQWQPLIEDRQLLSWVAEQPTEEEKLKARLITPSQISKLEAKWRSNKDATINDIDAPEEQEAIPPLLLRYQDAYEYQRSYGPLIKLEADYDKQLKESQALEHISVSWSLALNNRHLASFTLSTFESNELKVAIGDEMILWYSGMQHPDWEGRGYIVRLPNSFQDTFTLELKPSKTPPPTHLTTGFTAEFIWKGTSYDRMQDALKKFAIDKKSISGYLYYKILGHQVVDISFDVPLPKEFSIPNFAQLNSSQSNAVSHVLQRPLSLIQGPPGTGKTVTSATIVYHLSKIHKDRILVCAPSNVAVDHLAAKLRDLGLKVVRLTAKSREDVESSVSNLALHNLVGRGAKGELKNLLKLKDEVGELSASDTKRFVKLVRKTEAEILNKADVVCCTCVGAGDKRLDTKFRTVLIDESTQASEPECLIPIVKGAKQVILVGDHQQLGPVILERKAADAGLKQSLFERLISLGHVPIRLEVQYRMNPYLSEFPSNMFYEGSLQNGVTIEQRTVPNSKFPWPIRGIPMMFWANYGREEISANGTSFLNRIEAMNCERIITKLFRDGVKPEQIGVITPYEGQRAYILQYMQMNGSLDKDLYIKVEVASVDAFQGREKDYIILSCVRANEQQAIGFLRDPRRLNVGLTRAKYGLVILGNPRSLARNTLWNHLLIHFREKGCLVEGTLDNLQLCTVQLVRPQPRKTERPMNAQFNVESEMGDFPKFQDFDAQSMVSFSGQIGDFGNAFVDNTELSSYINNEYWNFENFKSAFSQKQNRNEIDDRNLYQEEASHLNSNFARELQREEQKHELSKDFSNLGI
B3: YAR042W (protein, UniProt P35845 1-1188, looked up)
Oxysterol-binding protein …: MEQPDLSSVAISKPLLKLKLLDALRQGSFPNLQDLLKKQFQPLDDPNVQQVLHLMLHYAVQVAPMAVIKEIVHHWVSTTNTTFLNIHLDLNERDSNGNTPLHIAAYQSRGDIVAFLLDQPTINDCVLNNSHLQAIEMCKNLNIAQMMQVKRSTYVAETAQEFRTAFNNRDFGHLESILSSPRNAELLDINGMDPETGDTVLHEFVKKRDVIMCRWLLEHGADPFKRDRKGKLPIELVRKVNENDTATNTKIAIDIELKKLLERATREQSVIDVTNNNLHEAPTYKGYLKKWTNFAQGYKLRWFILSSDGKLSYYIDQADTKNACRGSLNMSSCSLHLDSSEKLKFEIIGGNNGVIRWHLKGNHPIETNRWVWAIQGAIRYAKDREILLHNGPYSPSLALSHGLSSKVSNKENLHATSKRLTKSPHLSKSTLTQNDHDNDDDSTNNNNNKSNNDYDDNNNNNNNDDDDYDDDDESRPLIEPLPLISSRSQSLSEITPGPHSRKSTVSSTRAADIPSDDEGYSEDDSDDDGNSSYTMENGGENDGDEDLNAIYGPYIQKLHMLQRSISIELASLNELLQDKQQHDEYWNTVNTSIETVSEFFDKLNRLTSQREKRMIAQMTKQRDVNNVWIQSVKDLEMELVDKDEKLVALDKERKNLKKMLQKKLNNQPQVETEANEESDDANSMIKGSQESTNTLEEIVKFIEATKESDEDSDADEFFDAEEAASDKKANDSEDLTTNKETPANAKPQEEAPEDESLIVISSPQVEKKNQLLKEGSFVGYEDPVRTKLALDEDNRPKIGLWSVLKSMVGQDLTKLTLPVSFNEPTSLLQRVSEDIEYSHILDQAATFEDSSLRMLYVAAFTASMYASTTNRVSKPFNPLLGETFEYARTDGQYRFFTEQVSHHPPISATWTESPKWDFYGECNVDSSFNGRTFAVQHLGLWYITIRPDHNISVPEETYSWKKPNNTVIGILMGKPQVDNSGDVKVTNHTTGDYCMLHYKAHGWTSAGAYEVRGEVFNKDDKKLWVLGGHWNDSIYGKKVTARGGELTLDRIKTANSATGGPKLDGSKFLIWKANERPSVPFNLTSFALTLNALPPHLIPYLAPTDSRLRPDQRAMENGEYDKAAAEKHRVEVKQRAAKKEREQKGEEYRPKWFVQEEHPVTKSLYWKFNGEYWNKRKNHDFKDCADIF
B4: YPL246C (protein, UniProt Q12270 1-262, looked up)
Rhomboid-type serine protease …: MNWKSYVFPGGHPPAALTTGLVVFLTAIYLLSFIFALREDLSLAPESLFKLQMSRLSLYPLIHLSLPHLLFNVLAIWAPLNLFEETHGTVYTGVFLNLSALFAGILYCLLGKLLYPEALVAGASGWCFTLFAYYSFKESQIRPRTRIFRTDYSIPTLYTPLVLLVAIAVVIPGSSFWGHFFGLCVGYAIGYKESWFNKITPPGWIITKIEKSLDGLIRLIPWGIKYYRDEDIDRTKDYEPLMSTETPLPLHNDNSGTVLGTA
B5: YNR007C (protein, UniProt P40344 1-310, looked up)
Autophagy-related protein 3: MIRSTLSSWREYLTPITHKSTFLTTGQITPEEFVQAGDYLCHMFPTWKWNEESSDISYRDFLPKNKQFLIIRKVPCDKRAEQCVEVEGPDVIMKGFAEDGDEDDVLEYIGSETEHVQSTPAGGTKDSSIDDIDELIQDMEIKEEDENDDTEEFNAKGGLAKDMAQERYYDLYIAYSTSYRVPKMYIVGFNSNGSPLSPEQMFEDISADYRTKTATIEKLPFYKNSVLSVSIHPCKHANVMKILLDKVRVVRQRRRKELQEEQELDGVGDWEDLQDDIDDSLRVDQYLIVFLKFITSVTPSIQHDYTMEGW
B6: YDL160C (protein, UniProt P39517 1-506, looked up)
ATP-dependent RNA helicase …: MGSINNNFNTNNNSNTDLDRDWKTALNIPKKDTRPQTDDVLNTKGNTFEDFYLKRELLMGIFEAGFEKPSPIQEEAIPVAITGRDILARAKNGTGKTAAFVIPTLEKVKPKLNKIQALIMVPTRELALQTSQVVRTLGKHCGISCMVTTGGTNLRDDILRLNETVHILVGTPGRVLDLASRKVADLSDCSLFIMDEADKMLSRDFKTIIEQILSFLPPTHQSLLFSATFPLTVKEFMVKHLHKPYEINLMEELTLKGITQYYAFVEERQKLHCLNTLFSKLQINQAIIFCNSTNRVELLAKKITDLGYSCYYSHARMKQQERNKVFHEFRQGKVRTLVCSDLLTRGIDIQAVNVVINFDFPKTAETYLHRIGRSGRFGHLGLAINLINWNDRFNLYKIEQELGTEIAAIPATIDKSLYVAENDETVPVPFPIEQQSYHQQAIPQQQLPSQQQFAIPPQQHHPQFMVPPSHQQQQAYPPPQMPSQQGYPPQQEHFMAMPPGQSQPQY
B7: YCR009C (protein, UniProt P25343 1-265, looked up)
Reduced viability upon …: MSWEGFKKAINRAGHSVIIKNVDKTIDKEYDMEERRYKVLQRAGEALQKEAKGFLDSLRAVTASQTTIAEVISNLYDDSKYVAGGGYNVGNYYLQCVQDFDSETVKQLDGPLRETVLDPITKFSTYFKEIEEAIKKRDHKKQDFDAAKAKVRRLVDKPAKDASKLPRAEKELSLAKDIFENLNNQLKTELPQLVSLRVPYFDPSFEALIKIQLRFCTDGYTRLAQIQQYLDQQSRDDYANGLLDTKIEELLGQMTSLDICALGIK
B8: YGR178C (protein, UniProt P53297 1-722, looked up)
PAB1-binding protein 1: MKGNFRKRDSSTNSRKGGNSDSNYTNGGVPNQNNSSMFYENPEITRNFDDRQDYLLANSIGSDVTVTVTSGVKYTGLLVSCNLESTNGIDVVLRFPRVADSGVSDSVDDLAKTLGETLLIHGEDVAELELKNIDLSLDEKWENSKAQETTPARTNIEKERVNGESNEVTKFRTDVDISGSGREIKERKLEKWTPEEGAEHFDINKGKALEDDSASWDQFAVNEKKFGVKSTFDEHLYTTKINKDDPNYSKRLQEAERIAKEIESQGTSGNIHIAEDRGIIIDDSGLDEEDLYSGVDRRGDELLAALKSNSKPNSNKGNRYVPPTLRQQPHHMDPAIISSSNSNKNENAVSTDTSTPAAAGAPEGKPPQKTSKNKKSLSSKEAQIEELKKFSEKFKVPYDIPKDMLEVLKRSSSTLKSNSSLPPKPISKTPSAKTVSPTTQISAGKSESRRSGSNISQGQSSTGHTTRSSTSLRRRNHGSFFGAKNPHTNDAKRVLFGKSFNMFIKSKEAHDEKKKGDDASENMEPFFIEKPYFTAPTWLNTIEESYKTFFPDEDTAIQEAQTRFQQRQLNSMGNAVPGMNPAMGMNMGGMMGFPMGGPSASPNPMMNGFAAGSMGMYMPFQPQPMFYHPSMPQMMPVMGSNGAEEGGGNISPHVPAGFMAAGPGAPMGAFGYPGGIPFQGMMGSGPSGMPANGSAMHSHGHSRNYHQTSHHGHHNSSTSGHK
B9: YOR229W (protein, UniProt Q12206 1-467, looked up)
Transcriptional modulator WTM2: MAKSKSSQGASGARRKPAPSLYQHISSFKPQFSTRVDDVLHFSKTLTWRSEIIPDKSKGTLTTSLLYSQGSDIYEIDTTLPLKTFYDDDDDDDNDDDDEEGNGKTKSAATPNPEYGDAFQDVEGKPLRPKWIYQGETVAKMQYLESSDDSTAIAMSKNGSLAWFRDEIKVPVHIVQEMMGPATRYSSIHSLTRPGSLAVSDFDVSTNMDTVVKSQSNGYEEDSILKIIDNSDRPGDILRTVHVPGTNVAHSVRFFNNHLFASCSDDNILRFWDTRTADKPLWTLSEPKNGRLTSFDSSQVTENLFVTGFSTGVIKLWDARAVQLATTDLTHRQNGEEPIQNEIAKLFHSGGDSVVDILFSQTSATEFVTVGGTGNVYHWDMEYSFSRNDDDNEDEVRVAAPEELQGQCLKFFHTGGTRRSSNQFGKRNTVALHPVINDFVGTVDSDSLVTAYKPFLASDFIGRGYDD
B10: YLR258W (protein, UniProt P27472 1-705, looked up)
Glycogen [starch] synthase …: MSRDLQNHLLFETATEVANRVGGIYSVLKSKAPITVAQYKDHYHLIGPLNKATYQNEVDILDWKKPEAFSDEMRPVQHALQTMESRGVHFVYGRWLIEGAPKVILFDLDSVRGYSNEWKGDLWSLVGIPSPENDFETNDAILLGYTVAWFLGEVAHLDSQHAIVAHFHEWLAGVALPLCRKRRIDVVTIFTTHATLLGRYLCASGSFDFYNCLESVDVDHEAGRFGIYHRYCIERAAAHSADVFTTVSQITAFEAEHLLKRKPDGILPNGLNVIKFQAFHEFQNLHALKKEKINDFVRGHFHGCFDFDLDNTLYFFIAGRYEYKNKGADMFIEALARLNYRLKVSGSKKTVVAFIVMPAKNNSFTVEALKGQAEVRALENTVHEVTTSIGKRIFDHAIRYPHNGLTTELPTDLGELLKSSDKVMLKRRILALRRPEGQLPPIVTHNMVDDANDLILNKIRQVQLFNSPSDRVKMIFHPEFLNANNPILGLDYDEFVRGCHLGVFPSYYEPWGYTPAECTVMGVPSITTNVSGFGAYMEDLIETNQAKDYGIYIVDRRFKAPDESVEQLVDYMEEFVKKTRRQRINQRNRTERLSDLLDWKRMGLEYVKARQLALRRGYPDQFRELVGEELNDSNMDALAGGKKLKVARPLSVPGSPRDLRSNSTVYMTPGDLGTLQEVNNADDYFSLGVNPAADDDDDGPYADDS

Each molecule was assayed on ABP1 (assay: DHFR-PCA on solid medium, bait ABP1 (Fig. 1B)). Details: bait ABP1, label = prey.
Type: cell-based, Saccharomyces cerevisiae
Set-up: key: 0: SH3-independent; 1: SH3-dependent PPIs; 2: SH3-inhibited PPIs
Description: Supplement 41467_2021_21873_MOESM8_ESM.xlsx, sheet "Fig1B" | column: medsize; medrep; Ratio; Score
Work on B1 yielded a Score of 2.
In the case of B2, the Score is reported as 2.
With B3 the Score was 2.
Molecule B4 has a Score of 2.
With B5 the Score was 2.
In the case of B6, the Score is reported as 2.
In the case of B7, the Score is reported as 0.
For B8, the Score was 2.
B9 gave a Score of 2.
Work on B10 yielded a Score of 2.

Some results come without the dose or concentration used.
